From patent US9951097B2, “Antibacterial compounds targeting isoprenoid biosynthesis” (priority 2012, dated 2018)
Read-outs that look alike come from different tables or passages of the source.

By UniProt entry, the sequences of proteins in these tests, tags left out.
UniProt P60477, whole entry: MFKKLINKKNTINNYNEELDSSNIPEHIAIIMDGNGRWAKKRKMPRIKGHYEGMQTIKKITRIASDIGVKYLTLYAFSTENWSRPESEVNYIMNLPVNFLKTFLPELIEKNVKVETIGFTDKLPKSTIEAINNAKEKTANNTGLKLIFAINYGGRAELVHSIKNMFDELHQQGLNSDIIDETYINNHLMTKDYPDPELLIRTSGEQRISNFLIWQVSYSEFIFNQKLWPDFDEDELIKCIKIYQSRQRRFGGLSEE
UniProt P60472, whole entry: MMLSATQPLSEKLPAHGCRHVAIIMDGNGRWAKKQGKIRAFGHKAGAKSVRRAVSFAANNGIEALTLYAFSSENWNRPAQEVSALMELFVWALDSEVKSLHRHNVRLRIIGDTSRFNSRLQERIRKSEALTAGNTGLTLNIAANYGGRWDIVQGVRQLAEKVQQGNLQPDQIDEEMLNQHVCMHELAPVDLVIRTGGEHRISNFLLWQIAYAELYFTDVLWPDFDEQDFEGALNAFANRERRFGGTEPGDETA

Assays:
Streptococcus pyogenes = details: previous work (Zhang et al. 2012); cited from earlier work
S. aureus UPPS = S. aureus UPPS (Staphylococcus aureus, UniProt P60477); details: read-out: S. aureus UPPS IC50
Enterococcus faecium = details: previous work (Zhang et al. 2012); cited from earlier work
[1] = tested on: S. aureus (USA300 strain); assay: S. aureus cell growth inhibition; assay type: cell-based; details: USA300, MRSA strain
[2] = tested on: S. aureus (USA300 strain); details: previous work (Zhang et al. 2012); cited from earlier work
E. coli = E. coli cell growth inhibition; assay type: cell-based
Listeria monocytogenes = details: previous work (Zhang et al. 2012); cited from earlier work
Bacillus anthracis = details: previous work (Zhang et al. 2012); cited from earlier work
E. coli UPPS = E. coli UPPS (Escherichia coli, UniProt P60472); assay: E. coli UPPS inhibition assay; assay type: biochemical; details: read-out: E. coli UPPS IC50
UPPS = UPPS inhibition, enzyme species not given; assay type: biochemical; details: read-out: UPPS IC50

Compound	Streptococcus pyogenes MIC90 (Streptococcus pyogenes)	IC50 (S. aureus UPPS)	Enterococcus faecium MIC90 (Enterococcus faecium)	S. aureus MIC90 [1]	S. aureus MIC90 [2]	E. coli MIC90 (E. coli)	Listeria monocytogenes MIC90 (Listeria monocytogenes)	Bacillus anthracis MIC90 (Bacillus anthracis)	IC50 (E. coli UPPS)	IC50 (UPPS)
CCCCCCCCOc1ccc(C(=O)C=C(O)C(=O)O)cc1	1 µg/mL	2000 nM	4 µg/mL	0.25 µg/mL	0.25 to 0.5 µg/mL	>32 µg/mL	4 µg/mL	0.5 µg/mL		
Cc1ccc(Oc2cccc(NC(=O)c3ccccc3C(=O)O)c2)cc1C		170000 nM				>32 µg/mL				
CCCCCCCCCCOc1cccc(C(=O)C=C(O)C(=O)O)c1		730 nM		0.5 µg/mL		>32 µg/mL				
O=C(Nc1cccc(Oc2ccc(C(=O)O)c(C(=O)O)c2)c1)c1ccc(-c2ccccc2)cc1		6900 nM				16 µg/mL				
O=C(Nc1ccc(Br)cc1C(=O)O)c1ccc(S(=O)(=O)N2CCc3cc(Cl)ccc32)cc1		1600 nM		1 µg/mL		>32 µg/mL			1400 nM	1000 to 2000 nM
Cc1ccc(Oc2cccc(NC(=O)c3cc([N+](=O)[O-])ccc3C(=O)O)c2)cc1C		72000 nM				>32 µg/mL				
